For this data set, the system named is intracellular Mm in murine BMDMs. Description: Anti-mycobacterial efficacy in M. marinum-infected BMDMs (CFU plating). Format: cell-based, Mycobacterium marinum. The following applies: ratio of intracellular IC90 to extracellular MIC90.

Values joined by “and” are separate entries in the source; they are usually repeats but may differ in a detail not shown here. Identical values can stand only once.

As for `COc1ccc2c(ccc3oc([N+](=O)[O-])cc32)c1` [C16, 7-methoxy-2-nitronaphtho[2,1-b]furan], the IC90/MIC90 worked out at 0.82.

On to `CO[C@H]1/C=C/O[C@@]2(C)Oc3c(C)c(O)c4c(O)c(c(/C=N/N5CCN(C)CC5)c(O)c4c3C2=O)NC(=O)/C(C)=C\C=C\[C@H](C)[C@H](O)[C@@H](C)[C@@H](O)[C@@H](C)[C@H](OC(C)=O)[C@@H]1C` [RIF, rifampicin], for which the IC90/MIC90 is 9 and 8.78.

The values above are taken from paper PMC8807572, “The zebrafish embryo as an in vivo model for screening nanoparticle-formulated lipophilic anti-tuberculosis compounds” (Disease Models & Mechanisms, 2022).
